Results of unrelated studies side by side (data: NIAID ChemDB).

Common to all: whole-cell or culture tests; organism: Staphylococcus aureus; measure: MIC

Conditions beyond the fields shown may differ between rows.

| structure | strain | value |
|---|---|---|
| O=c1[nH]sc2cc(F)ccc12 | ATCC 6538 | 5 µg/mL |
| CC(C)c1c(O)ccc2c1[C@@](C)(O)C[C@H]1C(C)(C)CCC[C@]21C | Methicillin-resistant | 8 µg/mL |
| CCC[C@H](N)C1CCN(c2c(F)cn3c(=O)c(C(=O)O)cc(C4CC4)c3c2C)C1 | NCTC10649 | 0.005 µg/mL |
| CC1CN(c2c(Cl)cc3c(=O)c(C(=O)O)cn(C4CC4)c3c2F)CC(C)N1 | 133 | 0.5 µg/mL |
| Cc1c(N2Cc3cccnc3C2)c(F)cn2c(=O)c(C(=O)O)cc(C3CC3)c12 | NCTC10649 | 0.005 µg/mL |
| O=C(O)c1cn(C2CC2)c2c(F)c(N3CCNC(C4CCCCC4)C3)c(Cl)cc2c1=O | 1756 | 0.06 µg/mL |
| CO[C@H]1/C=C/O[C@@]2(C)Oc3c(C)c(O)c4c(=O)c(c5oc6cc(N7CCN(CC(C)C)CC7)cc(=O)c6nc5c4c3=C2O)NC(=O)/C(C)=C\C=C\[C@H](C)[C@H](O)[C@@H](C)[C@@H](O)[C@@H](C)[C@H](OC(C)=O)[C@@H]1C | SMITH | 0.0078 µg/mL |
| CC(C)c1c(O)ccc2c1C(=O)C[C@H]1C(C)(C)CCC[C@]21C | Methicillin-resistant | >32 µg/mL |
| O=C(O)c1cn(C2CC2)c2c(Cl)c(N3CCNCC3)c(F)cc2c1=O | 422 | 0.125 µg/mL |
| CCCCNC(=O)c1cccc(C(F)(F)F)c1SSc1c(C(=O)NCCCC)cccc1C(F)(F)F | ATCC 6538 | 40 µg/mL |
| CC(=O)CN1CCN(c2c(Cl)cc3c(=O)c(C(=O)O)cn(C4CC4)c3c2F)CC1 | 133 | 0.25 µg/mL |
| NC1CCN(c2nc3c(cc2F)c(=O)c(C(=O)O)cn3-c2ccc(F)cc2F)C1 | NCTC10649 | 0.1 µg/mL |
| CO[C@H]1/C=C/O[C@@]2(C)Oc3c(C)c(O)c4c(O)c(c5c(c4c3C2=O)NC2(CCN(CC(C)C)CC2)N=5)=NC(=O)/C(C)=C\C=C\[C@H](C)[C@H](O)[C@@H](C)[C@@H](O)[C@@H](C)[C@H](OC(C)=O)[C@@H]1C | ATCC 25923 | 0.0625 µg/mL |
| CC(C)c1c(O)ccc2c1[C@H](O)C[C@H]1C(C)(C)CCC[C@]21C | Methicillin-resistant | 32 µg/mL |
| CC1CN(c2c(Cl)cc3c(=O)c(C(=O)O)cn(C4CC4)c3c2Cl)CCN1 | 1756 | 0.125 µg/mL |
| CCCCn1sc2cccc(C(F)(F)F)c2c1=O | ATCC 6538 | 50 µg/mL |
| CC(C)c1c(O)ccc2c1[C@H](O)[C@H](O)[C@H]1C(C)(C)CCC[C@]21C | Methicillin-resistant | 32 µg/mL |
| O=C(O)c1cn(C2CC2)c2c(F)c(N3CCNCC3)c(Cl)cc2c1=O | 422 | 0.25 µg/mL |
| Cc1c(N2CCC[C@@H](N)C2)c(F)cn2c(=O)c(C(=O)O)cc(C3CC3)c12 | 1775 (ciprofloxacin-resistant) | 1.56 µg/mL |
| CCC1CN(c2c(Cl)cc3c(=O)c(C(=O)O)cn(C4CC4)c3c2F)CCN1 | 422 | 0.25 µg/mL |
| NC(=O)c1cccc(F)c1SSc1c(F)cccc1C(N)=O | ATCC 6538 | 40 µg/mL |

A second listing of 2 rows from above:

structure	strain	value
CC(=O)CN1CCN(c2c(Cl)cc3c(=O)c(C(=O)O)cn(C4CC4)c3c2F)CC1	133	0.25 µg/mL
CC(C)c1c(O)ccc2c1C(=O)C[C@H]1C(C)(C)CCC[C@]21C	Methicillin-resistant	>32 µg/mL